Measured values taken from US20260250325A1, “Antiviral Polypeptide Membrane Fusion Inhibitor, and Preparation Method and Application Thereof” (priority 2025, published 2026).
Where a SMILES comes first, the peptide text is derived from it. The star is where a group is joined. Succinyl(4-O-cholesteryl) = CC(C)CCC[C@@H](C)[C@H]1CC[C@H]2[C@@H]3CC=C4C[C@@H](OC(=O)CCC(=O)*)CC[C@]4(C)[C@H]3CC[C@]12C

Tested on: RSV A long virus strain
Format: cell-based
Details: CC50/IC50, HEp-2 cells
Outline: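 HEp-2 cells (30000/well) infected with 100 PFU virus premixed 1 h with compound (8 concentrations, duplicate); after 2 h adsorption, cultured 1 day at 37 °C under 0.8% CMC overlay with compound. Plaques immunostained (RSV antibody, TrueBlue) and counted; IC50 and CC50 by non-linear fitting of % inhibition versus virus and cell controls.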

SMILES	Safety index (SI)
CC[C@H](C)[C@H](NC(=O)[C@H](CCCCN)NC(=O)[C@H](CCCCN)NC(=O)[C@H](CC(C)C)NC(=O)[C@H](CO)NC(=O)[C@H](CCC(=O)O)NC(=O)[C@H](CCC(=O)O)NC(=O)[C@@H](NC(=O)[C@H](CCCCN)NC(=O)[C@H](CCCCN)NC(=O)[C@H](CC(N)=O)NC(=O)[C@@H](NC(=O)[C@H](CCC(=O)O)NC(=O)[C@H](CCC(=O)O)NC(=O)[C@@H](NC(=O)[C@H](CCCCN)NC(=O)[C@H](CCCCN)NC(=O)[C@H](CC(=O)O)NC(=O)[C@H](Cc1ccccc1)NC(=O)[C@H](CCC(=O)O)NC(=O)[C@H](CC(=O)O)NC(=O)[C@H](Cc1c[nH]c2ccccc12)NC(C)=O)[C@@H](C)CC)C(C)C)[C@@H](C)CC)C(=O)N[C@@H](CCC(=O)O)C(=O)N[C@@H](CCC(=O)O)C(=O)N[C@@H](CO)C(=O)N[C@@H](CC(=O)O)C(=O)N[C@@H](CCCCN)C(=O)N[C@@H](CCCCN)C(=O)N[C@@H](CC(C)C)C(=O)N[C@@H](CCC(=O)O)C(=O)N[C@@H](CCC(=O)O)C(=O)N[C@H](C(=O)N[C@@H](CC(N)=O)C(=O)N[C@@H](C)C(=O)N[C@@H](CCC(=O)O)C(=O)N[C@@H](C)C(=O)N[C@@H](C)C(=O)N[C@@H](C)C(=O)N[C@@H](CCCCN)C(=O)N[C@@H](CCCCNC(=O)CCC(=O)O[C@H]1CC[C@@]2(C)C(=CC[C@H]3[C@@H]4CC[C@H]([C@H](C)CCCC(C)C)[C@@]4(C)CC[C@@H]32)C1)C(N)=O)C(C)C [Compound 40] (Ac-WDEFDKKIEEVNKKIEESLKKIEESDKKLEEVNAEAAAKK(Succinyl(4-O-cholesteryl))-NH2)	1119.21
CC[C@H](C)[C@H](NC(=O)[C@H](CCCCN)NC(=O)[C@H](CCCCN)NC(=O)[C@H](CC(C)C)NC(=O)[C@H](CO)NC(=O)[C@H](CCC(=O)O)NC(=O)[C@H](CCC(=O)O)NC(=O)[C@@H](NC(=O)[C@H](CCCCN)NC(=O)[C@H](CCCCN)NC(=O)[C@H](CC(N)=O)NC(=O)[C@@H](NC(=O)[C@H](CCC(=O)O)NC(=O)[C@H](CCC(=O)O)NC(=O)[C@@H](NC(=O)[C@H](CCCCN)NC(=O)[C@H](CCCCN)NC(=O)[C@H](CC(=O)O)NC(=O)[C@H](Cc1ccccc1)NC(=O)[C@H](CCC(=O)O)NC(=O)[C@H](CC(=O)O)NC(=O)[C@H](Cc1c[nH]c2ccccc12)NC(C)=O)[C@@H](C)CC)C(C)C)[C@@H](C)CC)C(=O)N[C@@H](CCC(=O)O)C(=O)N[C@@H](CCC(=O)O)C(=O)N[C@@H](CO)C(=O)N[C@@H](CC(=O)O)C(=O)N[C@@H](CCCCN)C(=O)N[C@@H](CCCCN)C(=O)N[C@@H](CC(C)C)C(=O)N[C@@H](CCC(=O)O)C(=O)N[C@@H](CCC(=O)O)C(=O)N[C@H](C(=O)N[C@@H](CC(N)=O)C(=O)N[C@@H](CCC(=O)O)C(=O)N[C@@H](C)C(=O)N[C@@H](C)C(=O)N[C@@H](C)C(=O)N[C@@H](CCCCN)C(=O)N[C@@H](CCCCNC(=O)CCC(=O)O[C@H]1CC[C@@]2(C)C(=CC[C@H]3[C@@H]4CC[C@H]([C@H](C)CCCC(C)C)[C@@]4(C)CC[C@@H]32)C1)C(N)=O)C(C)C [Compound 41] (Ac-WDEFDKKIEEVNKKIEESLKKIEESDKKLEEVNEAAAKK(Succinyl(4-O-cholesteryl))-NH2)	1144.98
CC[C@H](C)[C@H](NC(=O)[C@H](CO)NC(=O)[C@H](C)NC(=O)[C@H](CC(=O)O)NC(=O)[C@H](Cc1ccccc1)NC(C)=O)C(=O)N[C@@H](CCC(=O)O)C(=O)N[C@@H](CCC(=O)O)C(=O)N[C@H](C(=O)N[C@@H](CC(N)=O)C(=O)N[C@@H](CCCNC(=N)N)C(=O)N[C@@H](CCCNC(=N)N)C(=O)N[C@H](C(=O)N[C@@H](CCC(=O)O)C(=O)N[C@@H](CCC(=O)O)C(=O)N[C@@H](CO)C(=O)N[C@@H](CC(C)C)C(=O)N[C@@H](CCCNC(=N)N)C(=O)N[C@@H](CCCNC(=N)N)C(=O)N[C@H](C(=O)N[C@@H](CCC(=O)O)C(=O)N[C@@H](CCC(=O)O)C(=O)N[C@@H](CO)C(=O)N[C@@H](CC(=O)O)C(=O)N[C@@H](CCCNC(=N)N)C(=O)N[C@@H](CCCNC(=N)N)C(=O)N[C@@H](CC(C)C)C(=O)N[C@@H](CCC(=O)O)C(=O)N[C@@H](CCC(=O)O)C(=O)N[C@H](C(=O)N[C@@H](CC(N)=O)C(=O)N[C@@H](C)C(=O)N[C@@H](CCC(=O)O)C(=O)N[C@@H](C)C(=O)N[C@@H](C)C(=O)N[C@@H](C)C(=O)N[C@@H](CCCCN)C(=O)N[C@@H](CCCCNC(=O)CCC(=O)O[C@H]1CC[C@@]2(C)C(=CC[C@H]3[C@@H]4CC[C@H]([C@H](C)CCCC(C)C)[C@@]4(C)CC[C@@H]32)C1)C(N)=O)C(C)C)[C@@H](C)CC)[C@@H](C)CC)C(C)C [Compound 42] (Ac-FDASIEEVNRRIEESLRRIEESDRRLEEVNAEAAAKK(Succinyl(4-O-cholesteryl))-NH2)	314.06
CC[C@H](C)[C@H](NC(=O)[C@H](CO)NC(=O)[C@H](C)NC(=O)[C@H](CC(=O)O)NC(=O)[C@H](Cc1ccccc1)NC(=O)[C@H](CCC(=O)O)NC(=O)[C@H](CC(=O)O)NC(=O)[C@H](Cc1c[nH]c2ccccc12)NC(C)=O)C(=O)N[C@@H](CCC(=O)O)C(=O)N[C@@H](CCC(=O)O)C(=O)N[C@H](C(=O)N[C@@H](CC(N)=O)C(=O)N[C@@H](CCCNC(=N)N)C(=O)N[C@@H](CCCNC(=N)N)C(=O)N[C@H](C(=O)N[C@@H](CCC(=O)O)C(=O)N[C@@H](CCC(=O)O)C(=O)N[C@@H](CO)C(=O)N[C@@H](CC(C)C)C(=O)N[C@@H](CCCNC(=N)N)C(=O)N[C@@H](CCCNC(=N)N)C(=O)N[C@H](C(=O)N[C@@H](CCC(=O)O)C(=O)N[C@@H](CCC(=O)O)C(=O)N[C@@H](CO)C(=O)N[C@@H](CC(=O)O)C(=O)N[C@@H](CCCNC(=N)N)C(=O)N[C@@H](CCCNC(=N)N)C(=O)N[C@@H](CC(C)C)C(=O)N[C@@H](CCC(=O)O)C(=O)N[C@@H](CCC(=O)O)C(=O)N[C@H](C(=O)N[C@@H](CCC(=O)O)C(=O)N[C@@H](C)C(=O)N[C@@H](C)C(=O)N[C@@H](C)C(=O)N[C@@H](CCCCN)C(=O)N[C@@H](CCCCNC(=O)CCC(=O)O[C@H]1CC[C@@]2(C)C(=CC[C@H]3[C@@H]4CC[C@H]([C@H](C)CCCC(C)C)[C@@]4(C)CC[C@@H]32)C1)C(N)=O)C(C)C)[C@@H](C)CC)[C@@H](C)CC)C(C)C [Compound 43] (Ac-WDEFDASIEEVNRRIEESLRRIEESDRRLEEVEAAAKK(Succinyl(4-O-cholesteryl))-NH2)	671.23
CC[C@H](C)[C@H](NC(=O)[C@H](CCCCN)NC(=O)[C@H](CCCCN)NC(=O)[C@H](CC(C)C)NC(=O)[C@H](CO)NC(=O)[C@H](CCC(=O)O)NC(=O)[C@H](CCC(=O)O)NC(=O)[C@@H](NC(=O)[C@H](CCCCN)NC(=O)[C@H](CCCCN)NC(=O)[C@H](CC(N)=O)NC(=O)[C@@H](NC(=O)[C@H](CCC(=O)O)NC(=O)[C@H](CCC(=O)O)NC(=O)[C@@H](NC(=O)[C@H](CCCCN)NC(=O)[C@H](CCCCN)NC(=O)[C@H](CC(=O)O)NC(=O)[C@H](Cc1ccccc1)NC(=O)[C@H](CCC(=O)O)NC(=O)[C@H](CC(=O)O)NC(=O)[C@H](Cc1c[nH]c2ccccc12)NC(C)=O)[C@@H](C)CC)C(C)C)[C@@H](C)CC)C(=O)N[C@@H](CCC(=O)O)C(=O)N[C@@H](CCC(=O)O)C(=O)N[C@@H](CO)C(=O)N[C@@H](CC(=O)O)C(=O)N[C@@H](CCCCN)C(=O)N[C@@H](CCCCN)C(=O)N[C@@H](CC(C)C)C(=O)N[C@@H](Cc1c[nH]cn1)C(=O)N[C@@H](CC(N)=O)C(=O)N[C@H](C(=O)N[C@@H](CCC(=O)O)C(=O)N[C@@H](C)C(=O)N[C@@H](C)C(=O)N[C@@H](C)C(=O)N[C@@H](CCCCN)C(=O)N[C@@H](CCCCNC(=O)CCC(=O)O[C@H]1CC[C@@]2(C)C(=CC[C@H]3[C@@H]4CC[C@H]([C@H](C)CCCC(C)C)[C@@]4(C)CC[C@@H]32)C1)C(N)=O)C(C)C [Compound 44] (Ac-WDEFDKKIEEVNKKIEESLKKIEESDKKLHNVEAAAKK(Succinyl(4-O-cholesteryl))-NH2)	2137.32
CC[C@H](C)[C@H](NC(=O)[C@H](CO)NC(=O)[C@H](C)NC(=O)[C@H](CC(=O)O)NC(=O)[C@H](Cc1ccccc1)NC(=O)[C@H](CCC(=O)O)NC(=O)[C@H](CC(=O)O)NC(=O)[C@H](Cc1c[nH]c2ccccc12)NC(C)=O)C(=O)N[C@@H](CO)C(=O)N[C@@H](CCC(N)=O)C(=O)N[C@H](C(=O)N[C@@H](CC(N)=O)C(=O)N[C@@H](CCC(=O)O)C(=O)N[C@@H](CCCCN)C(=O)N[C@H](C(=O)N[C@@H](CC(N)=O)C(=O)N[C@@H](CCC(N)=O)C(=O)N[C@@H](CO)C(=O)N[C@@H](CC(C)C)C(=O)N[C@@H](CCC(=O)O)C(=O)N[C@@H](CCC(=O)O)C(=O)N[C@H](C(=O)N[C@@H](CCCNC(=N)N)C(=O)N[C@@H](CCCCN)C(=O)N[C@@H](CO)C(=O)N[C@@H](CC(=O)O)C(=O)N[C@@H](CCC(=O)O)C(=O)N[C@@H](CC(C)C)C(=O)N[C@@H](CC(C)C)C(=O)N[C@@H](Cc1c[nH]cn1)C(=O)N[C@@H](CC(N)=O)C(=O)N[C@@H](CCC(=O)O)C(=O)N[C@@H](C)C(=O)N[C@@H](C)C(=O)N[C@@H](C)C(=O)N[C@@H](CCCCN)C(=O)N[C@@H](CCCCNC(=O)CCC(=O)O[C@H]1CC[C@@]2(C)C(=CC[C@H]3[C@@H]4CC[C@H]([C@H](C)CCCC(C)C)[C@@]4(C)CC[C@@H]32)C1)C(N)=O)[C@@H](C)CC)[C@@H](C)CC)C(C)C [Compound 45] (Ac-WDEFDASISQVNEKINQSLEEIRKSDELLHNEAAAKK(Succinyl(4-O-cholesteryl))-NH2)	815.34
CC[C@H](C)[C@H](NC(=O)[C@H](CCCCN)NC(=O)[C@H](CCCCN)NC(=O)[C@H](CC(C)C)NC(=O)[C@H](CO)NC(=O)[C@H](CCC(N)=O)NC(=O)[C@H](CC(N)=O)NC(=O)[C@@H](NC(=O)[C@H](CCCCN)NC(=O)[C@H](CCCCN)NC(=O)[C@H](CC(=O)O)NC(=O)[C@H](Cc1ccccc1)NC(=O)[C@H](CCC(=O)O)NC(=O)[C@@H](NC(=O)[C@H](CCCCN)NC(=O)[C@H](CCCCN)NC(=O)[C@H](CC(N)=O)NC(=O)[C@@H](NC(=O)[C@H](CC(C)C)NC(=O)[C@H](CCC(=O)O)NC(=O)[C@H](CC(=O)O)NC(=O)[C@H](CO)NC(C)=O)C(C)C)[C@@H](C)CC)[C@@H](C)CC)C(=O)N[C@@H](CCC(=O)O)C(=O)N[C@@H](CCC(=O)O)C(=O)N[C@@H](CO)C(=O)N[C@@H](CC(=O)O)C(=O)N[C@@H](CCCCN)C(=O)N[C@@H](CCCCN)C(=O)N[C@@H](CCCCN)C(=O)N[C@@H](CC(C)C)C(=O)N[C@@H](CCC(=O)O)C(=O)N[C@@H](C)C(=O)N[C@@H](C)C(=O)N[C@@H](C)C(=O)N[C@@H](CCCCN)C(=O)N[C@@H](CCCCN)C(N)=O [Compound 51] (Ac-SDELVNKKIEFDKKINQSLKKIEESDKKKLEAAAKK-NH2)	322
